Only a part is listed here, and it is no random draw. Activity calls are given as the source filed them. Cut-off read from the data, not from the text of the source: active = activity above about 50% (passing the limit was not always enough); inconclusive = no clear call, values can overlap the other calls.
Each compound was assayed on DNA topoisomerase I (Yersinia pestis CO92) (assay: Yersinia pestis topoisomerase I inhibitors, primary screen, biochemical, cleavage product accumulation, plate reader, single point (AID 504884)). Conditions: Y. pestis Topo-I cleavage product accumulation, at 10 µM, stronger effect = higher value.

Compound	activity
O=P(Nc1nccs1)(c1ccccc1)c1ccccc1	inactive: 3.32%
CC(C)C(=O)NC(Sc1ccccc1)C(Cl)(Cl)Cl (stereo unspecified)	inactive: -6.79%
c1nnnn1CCn1cnnn1	inactive: 6.01%
O=[As](O)(c1ccccc1)c1ccc(O)cc1	inactive: 4.2%
CC(=O)NC(SC(=S)N(C)C)C(Cl)(Cl)Cl (stereo unspecified)	inactive: 2.59%
O=[N+]([O-])c1ncn(CCn2cnc([N+](=O)[O-])n2)n1	inactive: 10.1%
O=[N+]([O-])c1ccc(O)c(/C=N/Nc2ccc([N+](=O)[O-])cc2[N+](=O)[O-])c1	inactive: -20%
O=C(OC1CN2CCC1CC2)c1cccc(Cl)c1 (stereo unspecified)	inactive: 1.75%
C(Cc1nn[nH]n1)Cc1nn[nH]n1	inactive: 6.32%
Nc1ccc([As](=O)(O)c2ccc([N+](=O)[O-])cc2)cc1	inactive: -13.3%
CN(C)C1(CNC(=O)c2ccc(Cl)c(S(N)(=O)=O)c2)CCCCC1	inactive: 2.95%
O=P(Nc1ccccn1)(c1ccc(Br)cc1)c1ccc(Br)cc1	inactive: -8.94%
COc1ccc(N)c([N+](=O)[O-])c1[N+](=O)[O-]	inactive: -8.64%
O=P(Nc1nc2ccccc2s1)(c1ccccc1)c1ccccc1	inactive: 6.76%
C[C@H]1OP(=O)(Oc2ccccc2)[C@H](O)[C@H](O)[C@H]1N=[N+]=[N-] (stereo partly specified)	inactive: 2.91%
O=C(OC1CN2CCC1CC2)c1ccccc1 (stereo unspecified)	inactive: 4.59%
CCC(=O)N1C2C3N(C(=O)CC)C1C1N(C(=O)CC)C(C(N1C(=O)CC)N3C(=O)CC)N2C(=O)CC	inactive: -0.225%
COC(=O)c1cc2c(s1)N=C(c1ccccc1)N(C)P2(=O)N1CCOCC1 (stereo unspecified)	inactive: -1.82%
CC(=O)NC(SC(=S)N(CC(C)C)CC(C)C)C(Cl)(Cl)Cl (stereo unspecified)	inactive: 21.4%
Cc1ccc(OP(=O)(Nc2ccccn2)Oc2ccc(C)cc2)cc1	inactive: 23.3%
CC(NC(=O)COC(=O)C(O)(c1ccccc1)c1ccccc1)c1ccccc1 (stereo unspecified)	inactive: 14.8%
Cc1ccccc1OP(=O)(Nc1ccccn1)Oc1ccccc1C	inactive: 27.4%
O=c1c2cc([N+](=O)[O-])ccc2[nH]c2c([N+](=O)[O-])cc([N+](=O)[O-])cc12	inactive: 2.32%
CN(C)C(=O)Oc1noc2ccccc12	inactive: -4.76%
c1ccc(-c2nn[nH]n2)c(-c2nn[nH]n2)c1	inactive: -4.03%
Cc1ccc(NP(=O)(Oc2cccc(C)c2)Oc2cccc(C)c2)nc1	inactive: 3.33%

Compound	activity
O=C(NC1CCS(=O)(=O)C1)NP(=S)(Oc1ccccc1)Oc1ccccc1 (stereo unspecified)	inactive: -0.727%
CCNC(=S)/N=C(\N)N[N+](=O)[O-]	inactive: 1.85%
O=P1(N(CCCl)CCCl)OCCC2CCCCN21 (stereo unspecified)	inactive: -9.9%
Cc1ccccc1CN(C)C(=O)COC(=O)C(O)(c1ccccc1)c1ccccc1	inactive: 18.9%
C[C@H]1OP(=O)(Oc2ccccc2)C[C@@H]2O[C@@H]21 (stereo partly specified)	inactive: -1.11%
C[C@@H]1C=CCP(=O)(Oc2ccccc2)O1 (stereo partly specified)	inactive: 7.75%
CC(=O)c1ccc(N2CC2c2ccncc2)cc1 (stereo unspecified)	inactive: 3.6%
N#C/C(=C\c1ccc(N(CCBr)CCBr)cc1)C(N)=O	inactive: 15.1%
COC(=O)C1(C)COP(=O)(NCc2ccccc2)OC1 (stereo unspecified)	inactive: -1.26%
CC(=O)Nc1ccc([As](=O)(O)O)c(O)c1	inactive: 4.82%
CC(=O)Nc1ccc(Oc2c([N+](=O)[O-])cc([N+](=O)[O-])cc2[N+](=O)[O-])cc1	inactive: 0.274%
O=P1(Nc2nc3ccc(Cl)cc3s2)COc2ccccc2O1 (stereo unspecified)	inactive: -1.63%
CCOc1ccc(C2=NCC(CBr)S2)cc1 (stereo unspecified)	inactive: 3.65%
CC(C)(C)C(=O)NC(Sc1ccccc1)C(Cl)(Cl)Cl (stereo unspecified)	inactive: 1.32%
CCc1cc(O)c([N+](=O)[O-])c(C)c1[N+](=O)[O-]	inactive: 2.34%
Oc1ccccc1CNc1ccccn1	inactive: 6.89%
O=C(NC(Sc1ccncn1)C(Cl)(Cl)Cl)c1ccccc1 (stereo unspecified)	inactive: -8.68%
Nc1cc(N)c2nonc2c1[N+](=O)[O-]	inactive: -6.31%
CC(C)CC(=O)NC(Sc1ccc(Cl)cc1)C(Cl)(Cl)Cl (stereo unspecified)	inactive: 6.6%
CN(C(=O)Cc1ccc(Cl)c(Cl)c1)[C@H]1CCCC[C@H]1N1CCCC1	inactive: 9.11%
Cc1ccc(N/C(=N/P(=O)(N2CCOCC2)N2CCOCC2)N2CCOCC2)cc1	inactive: -13.3%
NC(=O)c1cc([N+](=O)[O-])cc([N+](=O)[O-])c1N	inactive: 0.916%
CN1CCCC(OC(=O)C(c2ccccc2)c2ccccc2)C1 (stereo unspecified)	inactive: -5.19%
Clc1ccc(Cl)c(NC2=NCC(CBr)S2)c1 (stereo unspecified)	inactive: 3.1%
COc1ccccc1OP(=O)(Nc1ccc(C)cn1)Oc1ccccc1OC	inactive: 5.8%
Cc1ccc(OP(=O)(Nc2nccs2)Oc2ccc(C)cc2)cc1	inactive: 22.8%

Compound	activity
Nc1cccc2ccc([As](=O)(O)O)cc12	inactive: 5.01%
CCN(N=Nc1nonc1N)c1nonc1N	inactive: 4.69%
O=P(Nc1nc2ccc(Cl)cc2s1)(c1ccccc1)c1ccccc1	inactive: -5.21%
CN(C)P(=O)(N(C)C)n1c(Nc2ccccc2)nnc1-c1ccccc1	inactive: 17.3%
CC(=O)Nc1ccc([As](=O)(O)O)cc1	inactive: -8.16%
O=C(O)c1ccccc1[As](=O)(O)O	inactive: -1.79%
CCCC1OP(N)(=O)OCC1CC (stereo unspecified)	inactive: 2.5%
Cc1cc(SC(NC(=O)c2ccc(F)cc2)C(Cl)(Cl)Cl)ncn1 (stereo unspecified)	inactive: -14%
CCOP(=O)(Nc1ccccc1)OCC	inactive: -3.21%
CN(C(=O)Cc1ccc(Cl)c(Cl)c1)[C@H]1CCCC[C@@H]1N1CCCC1	inactive: -3.21%
Cc1ccc(NP(=O)(Oc2ccccc2F)Oc2ccccc2F)nc1	inactive: -3%
O=[N+]([O-])c1ncn(CCn2ncnc2[N+](=O)[O-])n1	inactive: 2.73%
CC(C)(C)C(=O)NC(Sc1ccncn1)C(Cl)(Cl)Cl (stereo unspecified)	inactive: -0.748%
O=C(O)CNc1ccc([As](=O)(O)O)cc1	inactive: -5.41%
COC(=O)C1(C)COP(=O)(Nc2ccccc2)OC1 (stereo unspecified)	inactive: -4.17%
O=[N+]([O-])c1cccc(NC2=NCC(CBr)S2)c1 (stereo unspecified)	inactive: -0.414%
O=P1(N(CCCl)CCCl)OCCCS1 (stereo unspecified)	inactive: 7.07%
O=C(Nc1cc([As](=O)(O)O)ccc1O)c1ccccc1	inactive: -6.91%
CCN(/C(=N/P(=O)(N1CCOCC1)N1CCOCC1)N1CCOCC1)c1ccc(OC)cc1	inactive: -8.85%
Nc1ccc([As](=O)(O)c2ccc(N)cc2)cc1	inactive: 2.04%
C[N+]1=C2C=CC=CC=C2SC12C([N+](=O)[O-])=CC([N+](=O)[O-])=C[C-]2[N+](=O)[O-] (stereo unspecified)	inactive: -25.1%
CC1CCN(C(=O)Oc2c(Cl)cc(Cl)c3cccnc23)CC1	inactive: 38.1%
c1cc(-c2nn[nH]n2)ccc1-c1nn[nH]n1	inactive: 6.61%
CC(C)c1nc(Nc2ccccc2)n(P(=O)(N(C)C)N(C)C)n1	inactive: 2.59%
CC(C)=N/N=C(\N)N[N+](=O)[O-]	inactive: -6.1%
CN(C)C(=O)OCCc1n(C)cc[n+]1C	inactive: -3.9%

Compound	activity
COc1ccc(C2=NCC(CBr)S2)cc1 (stereo unspecified)	inactive: -15%
Cc1ccc(NP(=O)(Oc2ccccc2)Oc2ccccc2)nc1	inactive: 4%
O=[N+]([O-])c1cc([N+](=O)[O-])c(CCNc2ccccc2)c([N+](=O)[O-])c1	inactive: 2.1%
CCc1nc2c(n1)c1c(non1O)c1c2no[n+]1[O-]	inactive: 5.12%
CC(=O)N1C2C3N(C(C)=O)C1C1N(C(C)=O)C(C(N1C(C)=O)N3C(C)=O)N2C(C)=O	inactive: -8.75%
O=[N+]([O-])c1cccc2n[nH]nc12	inactive: -4.17%
O=C(OC1CN2CCC1CC2)c1cccc([N+](=O)[O-])c1 (stereo unspecified)	inactive: -3.2%
CSc1ccc(Nc2c([N+](=O)[O-])cc([N+](=O)[O-])cc2[N+](=O)[O-])cc1	inactive: -14.3%
CCOC(=O)c1ccc(NC(=O)C(C)(CCl)SC)cc1 (stereo unspecified)	inactive: 1.04%
CCC(C)N(CC(C)C)C(=S)SC(NC(C)=O)C(Cl)(Cl)Cl (stereo unspecified)	inactive: 14%
COP1(=S)c2c(C)nn(CCC#N)c2N=C(c2ccc(F)cc2)N1C (stereo unspecified)	inactive: 0.057%
O=C(O)C(=O)c1ccc(N(CCCl)CCCl)cc1	inactive: 1.98%
O=C(COc1ccccc1)OC1CN2CCC1CC2 (stereo unspecified)	inactive: -4.48%
O=C(Nc1ccncc1[N+](=O)[O-])c1ccc([N+](=O)[O-])cc1[N+](=O)[O-]	inactive: 4.4%
CCOC(=O)Nc1cccc([As](=O)(O)O)c1	inactive: -2.95%
Cc1cc(SC(NC=O)C(Cl)(Cl)Cl)ncn1 (stereo unspecified)	inactive: -1.29%
O=P(Nc1ccccn1)(c1cccc2ccccc12)c1cccc2ccccc12	inactive: 23.8%
O=[N+]([O-])c1ccc(Nc2ccc(Oc3ccc([N+](=O)[O-])cc3[N+](=O)[O-])cc2)c([N+](=O)[O-])c1	inactive: -1.76%
O=C(O)C(O)c1ccc(N(CCCl)CCCl)cc1 (stereo unspecified)	inactive: 1.84%
CCOC(=O)Nc1ccc([As](=O)(O)O)c(O)c1	inactive: 4.47%
CC1CCNP(=O)(N(CCCl)CCCl)O1 (stereo unspecified)	inactive: -7.46%
COP(=O)(OC)N1CC1c1ccccc1 (stereo unspecified)	inactive: 6.86%
CCCCOc1ccc(C(=O)NCC2(N3CCCCC3)CCCCC2)cc1OC	inactive: 5.95%

Source: PubChem BioAssay AID504884 (Broad Institute, 2011)
